The series concerns 309 bp DNA/PNA-affibody detection reagent. In words: Nanopore detection of TNFα. In kind it is binding.

Values joined by “and” are separate entries in the source; they are usually repeats but may differ in a detail not shown here. Identical values can stand only once.

Turning to TNFα, the detection outcome (0.75 nM) is reported as “not positively detected”. Besides, the “positively detected range above the pore” value (99% positive, three nanopore experiments) fell in the range of 78 to 1950 µg/L. The TTP result was “np and not positive” (P29, TNFα 0.75 nM, X 0.25, np = criterion not satisfied); 138 s (P29, TNFα 1.5 nM, X 0.5); 41 s (P29, TNFα 3 nM, X 1); 10 s (P29, TNFα 9 nM, X 3); 5.3 s and 5 s (P29, TNFα 18 nM, X 6); 5.6 s and 6 s (P29, TNFα 37.5 nM, X 12.5). Also, the TTP entry is “np” (P30, TNFα 0.75 nM, np = criterion not satisfied); 31 s (P30, TNFα 3 nM); 60 s (P30, TNFα 9 nM); 22 s (P30, TNFα 18 nM); 4.1 s (P30, TNFα 37.5 nM); 306 s (P31, TNFα 1.5 nM). For the same substance, the TTP reads like this: (P31, TNFα 3 nM) 84 s; (P31, TNFα 9 nM) 9.8 s; (P31, TNFα 18 nM) 46 s; (P31, TNFα 37.5 nM) 42 s. For the same substance, the “detected range at incubation” value (after dilution factor and unit conversion) lay in the range of 1.3 to 32.5 mg/L.

Source of the values: paper PMC6172217, “A handheld platform for target protein detection and quantification using disposable nanopore strips” (Scientific Reports, 2018).
